## DMS reactivity of the HIV-1 5' RNA in monomer and dimer

The 5' region of HIV-1 NL4-3 RNA (positions 1-437):
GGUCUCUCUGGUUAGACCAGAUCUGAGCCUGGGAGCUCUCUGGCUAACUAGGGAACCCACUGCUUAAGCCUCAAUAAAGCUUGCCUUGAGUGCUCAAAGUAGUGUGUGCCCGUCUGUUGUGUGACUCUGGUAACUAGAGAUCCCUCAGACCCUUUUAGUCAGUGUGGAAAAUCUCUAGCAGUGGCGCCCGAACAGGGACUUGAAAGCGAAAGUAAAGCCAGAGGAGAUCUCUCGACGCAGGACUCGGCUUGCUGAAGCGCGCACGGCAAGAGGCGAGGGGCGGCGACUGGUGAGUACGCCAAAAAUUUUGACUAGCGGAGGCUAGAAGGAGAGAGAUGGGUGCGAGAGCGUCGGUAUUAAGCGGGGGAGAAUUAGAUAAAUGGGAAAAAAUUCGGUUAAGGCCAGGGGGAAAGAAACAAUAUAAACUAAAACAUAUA

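Randomly mutated transcripts starting with one, two or three G (1G, 2G, 3G), capped or uncapped, were folded for 30 min at 37 °C. Monomer and dimer bands were cut from native gels after folding in high salt (300 mM KCl, 5 mM MgCl2) or low salt (40 mM KCl, 0.1 mM MgCl2). Gel slices were treated with 170 mM dimethyl sulfate for 15 min at 37 °C and read by mutational profiling against an ethanol control.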

Values are winsor-normalised DMS reactivities of A and C; higher means more reactive, usually unpaired.
One numbering serves 1G, 2G and 3G.
A position is written with its base.

position	1G capped low-salt dimer	1G capped low-salt monomer	1G uncapped high-salt dimer	1G uncapped high-salt monomer
A19	0.05	0.04	0.04	0.04
A21	0.58	0.56	0.55	0.59
C23	1.08	1.18	1.13	1.35
A26	0.25	0.18	0.24	0.14
C28	0.07	0.04	0.06	0.04
C29	0.15	0.13	0.13	0.11
A34	0.96	1.00	1.00	1.14
C36	0.08	0.04	0.07	0.04
C38	0.05	0.04	0.04	0.04
C40	0.05	0.04	0.04	0.04
C44	0.05	0.04	0.04	0.04
A46	0.10	0.06	0.08	0.05
A47	0.26	0.20	0.22	0.18
C48	0.16	0.11	0.14	0.08
A50	0.28	0.23	0.26	0.20
A54	0.22	0.20	0.21	0.20
A55	0.44	0.51	0.45	0.53
C56	0.14	0.17	0.19	0.21
C57	0.45	0.57	0.64	0.78
C58	0.12	0.21	0.08	0.19
A59	0.36	0.46	0.31	0.46
C60	0.14	0.24	0.10	0.26
C63	0.07	0.11	0.04	0.13
A66	1.02	0.89	1.07	0.96
A67	0.54	0.60	0.53	0.69
C69	0.05	0.04	0.04	0.04
C70	0.05	0.04	0.04	0.04
C72	0.18	0.16	0.16	0.11
A73	0.05	0.04	0.04	0.04
A74	0.67	0.73	0.63	0.79
A76	0.27	0.27	0.26	0.29
A77	0.74	0.71	0.74	0.82
A78	0.64	0.73	0.62	0.75
C80	0.41	0.36	0.40	0.38
C84	0.72	0.56	0.73	0.56
C85	0.41	0.31	0.43	0.33
A89	0.43	0.54	0.40	0.57
C93	0.05	0.04	0.04	0.04
C95	0.56	0.52	0.55	0.58
A96	0.25	0.27	0.25	0.27
A97	0.37	0.47	0.32	0.45
A98	0.32	0.39	0.29	0.39
A101	0.17	0.20	0.15	0.20
C109	0.19	0.15	0.22	0.20
C110	0.15	0.15	0.17	0.20
C111	0.22	0.25	0.23	0.34
C114	0.26	0.20	0.26	0.29
A124	0.95	0.99	0.91	1.10
C125	0.10	0.09	0.09	0.10
C127	0.05	0.04	0.04	0.04
A132	0.56	0.52	0.55	0.55

A selection of 4 entries from above:

- A74: 1G capped low-salt dimer 0.67; 1G capped low-salt monomer 0.73; 1G uncapped high-salt dimer 0.63; 1G uncapped high-salt monomer 0.79
- A96: 1G capped low-salt dimer 0.25; 1G capped low-salt monomer 0.27; 1G uncapped high-salt dimer 0.25; 1G uncapped high-salt monomer 0.27
- C36: 1G capped low-salt dimer 0.08; 1G capped low-salt monomer 0.04; 1G uncapped high-salt dimer 0.07; 1G uncapped high-salt monomer 0.04
- C70: 1G capped low-salt dimer 0.05; 1G capped low-salt monomer 0.04; 1G uncapped high-salt dimer 0.04; 1G uncapped high-salt monomer 0.04

Source: Ye et al. 2022 (doi:10.1038/s41594-022-00746-2), supplementary data.